Data as given in patent US7087375B1, “Method for determining the mechanism of HIV RT inhibitors” (priority 2000, dated 2006).

Key:
[1] = molecular target: T1, HIV-1 RT mutant M41L, T69S-AG, L210W, R211K, L214F, T215Y (Human immunodeficiency virus type 1 group M subtype B, UniProt P04585, L797W/L801F/M628L/R798K/T656S/T802Y); format: biochemical; conditions: d4T-TP assay
T1 construct: The final RT products, in a heterodimeric form (p66/p51); made in house

[2] = molecular target: T2, HIV-1 RT mutant M41L, T69S-SG, L210W, R211K, L214F, T215Y (Human immunodeficiency virus type 1 group M subtype B, UniProt P04585, L797W/L801F/M628L/R798K/T656S/T802Y); format: biochemical; conditions: d4T-TP assay
T2 construct: The final RT products, in a heterodimeric form (p66/p51); made in house

bromo-deoxyuridine-triphosphate [BrdUTP]
Km ([1]; ATP 3.2 mM): 230 nM | Km ([1]; without ATP): 130 nM | Km ([2]; ATP 3.2 mM): 184 nM | Km ([2]; without ATP): 83 nM

Like-named read-outs stand apart in the source and are kept apart here.
